Pooled drug test results. Numbers come from NIAID ChemDB, via PubChem.

Shared fields: growth or infection tests

ECn is the concentration giving n% inhibition of infection, replication or growth. Zone: diameter of growth inhibition. Lines come from different laboratories, so protocols vary. An empty or dashed field is not shown. Percent inhibition refers to the dose given; in toxicity tests it is the harm to the cells. a–b is a range or a potency band. MIC50, MIC90 and the like: level of inhibition, or share of isolates inhibited.

smiles | agent | strain | method | conditions | read-out | tested at | value
Clc1ccc(C2Cn3nnnc3Cc3ccccc32)cc1 | Mycobacterium luteus | ATCC 21881 | broth dilution |  | MIC |  | >200 µg/mL
CO[C@H]1/C=C/O[C@@]2(C)Oc3c(C)c(O)c4c(O)c(c5c(c4c3C2=O)NC2(CCN(CC(C)C)CC2)N=5)=NC(=O)/C(C)=C\C=C\[C@H](C)[C@H](O)[C@@H](C)[C@@H](O)[C@@H](C)[C@H](OC(C)=O)[C@@H]1C | Mycobacterium avium complex | N-976 (HIV+) |  |  | MIC |  | 0.25 µg/mL
Cc1cc(C)n(C(=O)C2CC(=O)N(c3cccc(OC4=C(Cl)C(=O)c5ccccc5C4=O)c3)C2)n1 | Mycobacterium luteum | B-917 |  |  | MIC |  | 250 µg/mL
Cc1nn(Cc2cn(CCCCCn3cc(Cn4nc(C)n(/N=C/c5cccs5)c4=O)nn3)nn2)c(=O)n1/N=C/c1cccs1 | Mycobacterium luteus |  | agar diffusion |  | zone | 20 mg/mL | 0.6 mm
Cc1cc(C)n(C(=O)COC(Cn2nnnc2-c2ccccc2)c2ccc(Cl)cc2)n1 | Mycobacterium luteus | ATCC 21881 | broth dilution |  | MIC |  | 50 µg/mL
COc1ccccc1-c1c(-c2ccc(OCc3ccccc3)cc2O)n[nH]c1C(F)(F)F | Mycobacterium marinum |  | visual reading |  | MIC |  | >50 µg/mL
O=C(NCc1ccc(CN2CCCCC2)cc1)c1c(Cl)nc2ccccn12 | Mycobacterium ulcerans |  | fluorescence |  | MIC50 |  | >10 µg/mL
CCOc1ccc(-c2n[nH]c(C(F)(F)F)c2-c2ccccc2OC)c(O)c1 | Mycobacterium marinum |  | visual reading |  | MIC |  | 25 µg/mL
CCc1cn(C2OC(CO)CC2F)c(=O)[nH]c1=O | Mycobacterium bovis BCG |  | resazurin |  | MIC25 |  | 100 µg/mL
COc1ccc(-c2c(-c3ccc(OCc4ccc([N+](=O)[O-])cc4)cc3O)n[nH]c2C(F)(F)F)cc1 | Mycobacterium marinum |  | visual reading |  | MIC |  | 50 µg/mL
CSc1nc(N)c2c(n1)NC(c1ccc(Cl)cc1)CC(c1ccc3c(c1)OCO3)=N2 | Mycobacterium szulgai | MNT1100 | MTT / broth dilution / absorbance | clinical isolate | MIC |  | >32 µg/mL
COc1c(N2CC[C@H](N)C2)c(F)cc2c(=O)[nH]c(=O)n(C3CC3)c12 | Mycobacterium smegmatis | G89C mutant |  |  | MIC99 |  | 200 µg/mL
CN[C@@H]1[C@H](O[C@H]2[C@H](O[C@H]3[C@H](O)[C@@H](O)[C@H](N=C(N)N)[C@@H](O)[C@@H]3N=C(N)N)O[C@@H](C)[C@]2(O)C=O)O[C@@H](CO)[C@H](O)[C@H]1O | Mycobacterium luteus |  | agar diffusion |  | zone | 10 µg/mL | 1.456 mm
C[C@@H]1CN(c2c(F)c(N)c3c(=O)c(C(=O)O)cn(C4CC4)c3c2F)C[C@H](C)N1 | Mycobacterium avium complex | N-945 (HIV+) |  |  | MIC |  | 0.5 µg/mL
CCOc1ccc(-c2n[nH]c(C(F)(F)F)c2-c2ccccc2)c(O)c1C | Mycobacterium marinum |  | visual reading |  | MIC |  | >50 µg/mL
CO[C@H]1/C=C/O[C@@]2(C)Oc3c(C)c(O)c4c(O)c(c(/C=N/N5CCN(C6CCCC6)CC5)c(O)c4c3C2=O)NC(=O)/C(C)=C\C=C\[C@H](C)[C@H](O)[C@@H](C)[C@@H](O)[C@@H](C)[C@H](OC(C)=O)[C@@H]1C | Mycobacterium avium intracellulare | 9-Feb |  |  | MIC |  | 2 µg/mL
COc1ccc(C2=Nc3c(N)nc(N)nc3NC(c3ccc4c(c3)OCO4)C2)cc1 | Mycobacterium szulgai | MNT1100 | MTT / broth dilution / absorbance | clinical isolate | MIC |  | 32 µg/mL
CN[C@@H]1[C@H](O[C@H]2[C@H](O[C@H]3[C@H](O)[C@@H](O)[C@H](N=C(N)N)[C@@H](O)[C@@H]3N=C(N)N)O[C@@H](C)[C@]2(O)C=O)O[C@@H](CO)[C@H](O)[C@H]1O | Mycobacterium avium complex | N-265 (HIV-) |  |  | MIC |  | 8 µg/mL
Cc1ccn2c(C(=O)NCc3ccc(N4CCNC(=O)C4)cc3)cnc2c1 | Mycobacterium ulcerans |  | fluorescence |  | MIC50 |  | >10 µg/mL
CCc1cc(C(N)=S)ccn1 | Mycobacterium avium complex | 56 strains | agar |  | inhibition | 5 µg/mL | 68%
CNC(=O)c1c(-c2ccc(C)cc2)nc2ccccn12 | Mycobacterium ulcerans |  | fluorescence |  | MIC50 |  | >10 µg/mL
NNC(=O)c1ccncc1 | Mycobacterium scrofulaceum | MNT1193 | MTT / broth dilution / absorbance | clinical isolate | MIC |  | >0.5 µg/mL
CCC1CN(c2c(F)cc3c(=O)n(N)c(=O)n(C4CC4)c3c2OC)CCN1 | Mycobacterium smegmatis | A91V mutant |  |  | MIC99 |  | 5 µg/mL
Cc1nn(Cc2cn(CCCCn3cc(Cn4nc(C)n(/N=C/c5cccs5)c4=O)nn3)nn2)c(=O)n1/N=C/c1cccs1 | Mycobacterium luteus |  | agar diffusion |  | zone | 20 mg/mL | 0.6 mm
COc1c(N2C[C@@H]3CCCN[C@@H]3C2)c(F)cc2c(=O)[nH]c(=O)n(C3CC3)c12 | Mycobacterium smegmatis | WT |  |  | MIC99 |  | 100 µg/mL
COc1ccc(CCn2c(C)nn(Cc3cn(CCCCCCn4cc(Cn5nc(C)n(CCc6ccc(OC)cc6)c5=O)nn4)nn3)c2=O)cc1 | Mycobacterium luteus |  | agar diffusion |  | zone | 20 mg/mL | 0.9 mm
CCOc1cc(O)c(-c2n[nH]c(C(F)(F)F)c2-c2ccccc2)cc1CC | Mycobacterium marinum |  | visual reading |  | MIC |  | >50 µg/mL
CO[C@H]1/C=C/O[C@@]2(C)Oc3c(C)c(O)c4c(=O)c(c5oc6cc(N7CCN(CC(C)C)CC7)cc(=O)c6nc5c4c3=C2O)NC(=O)/C(C)=C\C=C\[C@H](C)[C@H](O)[C@@H](C)[C@@H](O)[C@@H](C)[C@H](OC(C)=O)[C@@H]1C | Mycobacterium avium complex | N-951 (HIV+) |  |  | MIC |  | 0.0313 µg/mL
O=c1[nH]c(=S)c(CO)cn1C1OC(CO)C(O)C1O | Mycobacterium bovis BCG |  | resazurin |  | MIC100 |  | 50 µg/mL
CSc1nc(N)c2c(n1)NC(c1ccccc1)CC(c1ccc3c(c1)OCO3)=N2 | Mycobacterium szulgai | MNT1100 | MTT / broth dilution / absorbance | clinical isolate | MIC |  | >32 µg/mL
Cc1nc2ccccn2c1C(=O)NCN1CCN(C(=O)c2ccccc2Cl)CC1 | Mycobacterium ulcerans |  | fluorescence |  | MIC50 |  | >10 µg/mL
COc1c(N2CC[C@@H](CN)C2)c(F)cc2c(=O)n(N)c(=O)n(C3CC3)c12 | Mycobacterium smegmatis | D95Y mutant |  |  | MIC99 |  | 5 µg/mL
NCC[C@H](O)C(=O)N[C@@H]1C[C@H](N)[C@@H](O[C@H]2O[C@H](CN)[C@@H](O)[C@H](O)[C@H]2O)[C@H](O)[C@H]1O[C@H]1O[C@H](CO)[C@@H](O)[C@H](N)[C@H]1O | Mycobacterium abscessus | DSM44196 | broth dilution / visual reading |  | MIC100 |  | 4–8 µg/mL
CCc1cn(C2OC(CO)C(O)C2F)c(=O)[nH]c1=S | Mycobacterium bovis BCG |  | resazurin |  | MIC65 |  | 100 µg/mL
O=C(COC(Cn1nnnc1-c1ccccc1)c1ccc(Cl)cc1)N/N=C/c1ccc(Cl)cc1 | Mycobacterium luteus | ATCC 21881 | broth dilution |  | MIC |  | 100 µg/mL
Cc1c(N2CC[C@@H](CN)C2)c(F)cc2c(=O)n(N)c(=O)n(C3CC3)c12 | Mycobacterium smegmatis | D95Y mutant |  |  | MIC99 |  | 2.5 µg/mL
NNC(=O)COC(Cn1nnnc1-c1ccccc1)c1ccc(Cl)cc1 | Mycobacterium luteus | ATCC 21881 | broth dilution |  | MIC |  | >200 µg/mL
O=C1C(Oc2cccc(N3CC(c4nnco4)CC3=O)c2)=C(Oc2cccc(N3CC(c4nnco4)CC3=O)c2)C(=O)c2ccccc21 | Mycobacterium luteum | B-917 |  |  | MIC |  | 125 µg/mL
O=C(COC(Cn1nnnc1Cc1ccccc1)c1ccc(Cl)cc1)NNC(=S)Nc1ccc(Cl)cc1 | Mycobacterium luteus | ATCC 21881 | broth dilution |  | MIC |  | >200 µg/mL
N[C@@H]1CONC1=O | Mycobacterium avium complex | 155 strains | agar |  | EC50 |  | >30 µg/mL

The first 2 rows once more:

smiles,agent,strain,method,conditions,read-out,tested at,value
Clc1ccc(C2Cn3nnnc3Cc3ccccc32)cc1,Mycobacterium luteus,ATCC 21881,broth dilution,,MIC,,>200 µg/mL
CO[C@H]1/C=C/O[C@@]2(C)Oc3c(C)c(O)c4c(O)c(c5c(c4c3C2=O)NC2(CCN(CC(C)C)CC2)N=5)=NC(=O)/C(C)=C\C=C\[C@H](C)[C@H](O)[C@@H](C)[C@@H](O)[C@@H](C)[C@H](OC(C)=O)[C@@H]1C,Mycobacterium avium complex,N-976 (HIV+),,,MIC,,0.25 µg/mL